Results of unrelated studies side by side (data: NIAID ChemDB).

Shared fields: growth or infection tests; organism: Candida krusei

a–b is a range or a potency band.

SMILES,setting,read-out,method,strain or isolate,value
C[C@@H](N1CCN(Cc2cn(Cc3ccc(Cl)cc3Cl)c3c(F)cccc23)CC1)[C@](O)(Cn1cncn1)c1ccc(F)cc1F,,MIC80,resazurin,ATCC 6258,1 µg/mL
O=C(CCn1ccnc1)c1cccc(C(O)c2ccc(Br)cc2)c1,,MIC,broth dilution,RTCC 1090,>64 µg/mL
C[C@@H](N1CCN(Cc2cn(Cc3ccc(Cl)cc3Cl)c3ccc(C#N)cc23)CC1)[C@](O)(Cn1cncn1)c1ccc(F)cc1F,,MIC80,resazurin,ATCC 6258,0.5 µg/mL
O=C(CCn1ccnc1)c1cccc(C(O)c2ccc(Cl)c(Cl)c2)c1,,MIC,broth dilution,RTCC 1090,64 µg/mL
O=C1OCC(c2cccs2)=C1c1ccc(OCC(O)(Cn2cncn2)c2ccc(F)cc2F)cc1,,MIC50,broth dilution,ATCC 6258,8 µg/mL
C=CCc1ccc(O)c(OC)c1,,MIC90,turbidity,337,500 µg/mL
CC1(O)OC(=O)C(c2ccc(OCC(O)(Cn3cncn3)c3ccc(F)cc3F)cc2)=C1c1ccc(F)cc1F,,MIC50,broth dilution,ATCC 6258,16 µg/mL
O/N=C/c1ccc[n+](Cc2ccc(C[n+]3cccc(/C=N/O)c3)s2)c1.[Cl-].[Cl-],,EC50,broth dilution,,>20 µg/mL
CCOC(=O)C1C(=O)C=C(c2ccc(Cl)cc2)CC1c1ccc(C2CC(c3ccc(Cl)cc3)=CC(=O)C2C(=O)OCC)cc1,,MIC,,Clinical isolate,12.5 µg/mL
CC1CC(=O)N(c2ccc(Br)cc2)C1=O,,MIC,broth dilution / turbidity,CCC 117-2000,125 µg/mL
CCCCCCCC/C=C\CCCCCCCC(=O)N[C@H](C(=O)N1C[C@H](C)C[C@H]1C(=O)N[C@H](C(=O)N[C@@H](CCO)C(=O)N[C@@H](C)C=O)C(C)C)[C@@H](C)O,,MIC,broth dilution / visual reading,ATCC 6258,2 µg/mL
COc1cc(/C=C2\SC(=S)NC2=O)cc(OC)c1OCC(O)(Cn1cncn1)c1ccc(F)cc1F,,MIC50,broth dilution,ATCC 6258,16 µg/mL
CONc1nc([O-])nc2c1[N+](C/C=C(\C)CC/C=C(\C)CC/C=C(\C)CCC=C(C)C)=C=[N+]2C,,MIC,agar,ATCC 6258,>16 µg/mL
Cc1ccc(NC(=O)CN(C)CC(O)(Cn2cncn2)c2ccc(F)cc2F)c(C)c1,,MIC80,,,4 µg/mL
C[C@H]1[C@H](O)[C@@H](C)/C=C/C=C/C=C/C=C/C=C/C=C/C=C/[C@H](O[C@@H]2O[C@H](C)[C@@H](O)[C@H](N)[C@@H]2O)C[C@@H]2O[C@](O)(C[C@@H](O)C[C@@H](O)CC[C@H](O)[C@@H](O)C[C@@H](O)CC(=O)O[C@H]1C)C[C@H](O)[C@H]2C(=O)O,24 h,MIC,broth dilution,NBRC 1395,0.5 µg/mL
CN(CC(=O)Nc1cc(Cl)ccc1Cl)CC(O)(Cn1cncn1)c1ccc(F)cc1F,,MIC80,,,0.0625 µg/mL
C[C@H]1[C@H](O)[C@@H](C)/C=C/C=C/C=C/C=C/C=C/C=C/C=C/[C@H](O[C@@H]2O[C@H](C)[C@@H](O)[C@H](N)[C@@H]2O)C[C@@H]2O[C@](O)(C[C@@H](O)C[C@@H](O)CC[C@H](O)[C@@H](O)C[C@@H](O)CC(=O)O[C@H]1C)C[C@H](O)[C@H]2C(=O)O,,MIC100,broth dilution,,5 µg/mL
Cc1ccc(C2=C(c3ccc(OCC(O)(Cn4cncn4)c4ccc(F)cc4F)cc3)C(=O)OC2)cc1,,MIC50,broth dilution,ATCC 6258,4 µg/mL
CC(C)CC1NC(=O)CC(CCCCCCCCC(C)O)OC(=O)C(CC(C)C)NC(=O)C(CC(C)C)NC(=O)C(CC(C)C)NC(=O)C(C(C)C)NC(=O)C(CC(=O)O)NC(=O)C(CC(C)C)NC1=O,,MFC,visual reading,Clinical isolate,2 µg/mL
C[C@@H](N1CCN(Cc2cn(-c3ccc(F)cc3)c3ccccc23)CC1)[C@](O)(Cn1cncn1)c1ccc(F)cc1F,,MIC80,resazurin,ATCC 6258,0.5 µg/mL
O=C1c2ccccc2CC1Cn1ccnc1,,MIC,broth dilution,RTCC 1001,64 µg/mL
Cc1ccc(-c2c3c(N)c4c(nc3nc3c2c(C)nn3-c2ccccc2)CCCCC4)cc1,,MIC100,broth dilution / absorbance,CCC 117,125 µg/mL
COC(=O)c1ccc(C[C@H](C(=O)OC)[C@@H](O)C(=O)OC)cc1,,MIC,,DSM 6128,2 µg/mL
Cc1ccccc1N1C(=O)CC(C)C1=O,,MIC,broth dilution / turbidity,CCC 117-2000,125 µg/mL
COc1cc(C=O)cc(OC)c1OCC(O)(Cn1cncn1)c1ccc(F)cc1F,,MIC50,broth dilution,ATCC 6258,128 µg/mL
NN(Cc1ccccc1)CC(O)(Cn1cncn1)c1ccc(F)cc1F,,MIC80,,ATCC 6528,0.5 µg/mL
CCOC(=O)C1C(=O)C=C(c2ccccc2)CC1c1ccc(C2CC(c3ccccc3)=CC(=O)C2C(=O)OCC)cc1,,MIC,,Clinical isolate,50 µg/mL
CN(CC(=O)Nc1ccc(Br)cc1)CC(O)(Cn1cncn1)c1ccc(F)cc1F,,MIC80,,,16 µg/mL
COc1cc(/C=N/NC(=O)c2ccc(NC(C)=O)cc2)ccc1O,,EC50,broth dilution,ATCC 6258,120 µM
Cc1ccc(-c2c3c(N)c4c(nc3nc3c2c(C)nn3-c2ccccc2)CCC4)cc1,,MIC80,broth dilution / absorbance,CCC 117,125 µg/mL
CN[C@H]1CC[C@@H](c2ccc(Cl)c(Cl)c2)c2ccccc21,,MFC,broth dilution,DUMC132.91,16 µg/mL
CN(CC(=O)Nc1ccccc1)CC(O)(Cn1cncn1)c1ccc(F)cc1F,,MIC80,,,16 µg/mL
CCCC[C@@H](C)/C=C(C)/C=C(\C)C(=O)N/C(=C/[C@@](C)(O)/C=C/C=C/C=C/C(=O)NC1=C(O)CCC1=O)C(=O)[C@@H]1CO1,,MIC,broth dilution,2,25 µM
CO[N-]c1nc(N(C)C)nc2c1[N+](C/C=C(\C)CC/C=C(\C)CC/C=C(\C)CCC=C(C)C)=C=[N+]2C,,MIC,agar,ATCC 6258,2 µg/mL
CC(NC(=O)C(N)Cc1ccccc1)C(=O)NC(Cc1ccc(O)cc1)C(=O)O,,MFC,broth dilution,ATCC 6258,696 µg/mL
CCCCCCCCCCCC[n+]1cccc2ccccc21,48 h,MIC,broth dilution,E28,0.01562 µg/mL
NC(Cc1ccccc1)C(=O)NC(CC1C=Cc2ccccc21)C(=O)NC(CS)C(=O)O,,MIC,broth dilution,ATCC 6258,370 µg/mL
C[C@@H](N1CCN(Cc2cn(Cc3ccc(F)cc3F)c3ccccc23)CC1)[C@](O)(Cn1cncn1)c1ccc(F)cc1F,,MIC80,resazurin,ATCC 6258,0.5 µg/mL
CC1=C2C3=C4[C@@](C)(C(=O)[C@]2(O)OC1=O)[C@@H]1C[C@@H]1[C@@]4(O)C[C@@H]1[C@]32OC(=O)C3=C2C[C@H]2[C@](O)(COC(=O)/C(C)=C/COC(=O)CCC(=O)OC3)[C@H]3C[C@H]3[C@]12C,,MIC,broth dilution,ATCC 6258,>256 µg/mL
C[C@@H]1CC(=O)N(c2ccc(Br)cc2)C1=O,,MIC,broth dilution / turbidity,CCC 117-2000,62.5 µg/mL
Cc1ccc(-c2c3c(N)c4c(nc3nc3c2c(C)nn3-c2ccccc2)CCCC4)cc1,,MIC50,broth dilution / absorbance,CCC 117,7.8 µg/mL
CC(C)c1ccc(NS(=O)(=O)c2ccc(CN(C)CC(O)(Cn3cncn3)c3ccc(F)cc3F)cc2)cc1,,MIC,resazurin,8,0.85 µg/mL
C[C@@H](N1CCN(Cc2cn(Cc3ccc(F)cc3F)c3cc(Cl)ccc23)CC1)[C@](O)(Cn1cncn1)c1ccc(F)cc1F,,MIC80,resazurin,ATCC 6258,0.5 µg/mL
C[C@@H]1C(=O)N(Cc2ccccc2)C(=O)[C@@H]1C,,MIC,broth dilution / turbidity,CCC 117-2000,62.5 µg/mL
CC(C)CC(O)C(=O)O,,EC50,broth dilution,D 206 B,36000 µg/mL
CC(C)(O)c1cn(-c2ccc(Cl)cc2)nn1,,MIC,broth dilution,URM 934,256 µg/mL
CN(Cc1ccc(S(N)(=O)=O)cc1)CC(O)(Cn1cncn1)c1ccc(F)cc1F,,MIC,resazurin,8,13.2 µg/mL
CC1=C2C3=C4[C@](C)([C@@H]5C[C@@H]5[C@@]4(O)C[C@@H]4[C@]35OC(=O)C3=C5C[C@H]5[C@](O)(COC(=O)/C(C)=C/COC(=O)CCC(=O)OC3)[C@H]3C[C@H]3[C@]45C)[C@@H](O)[C@]2(O)OC1=O,,MIC,broth dilution,ATCC 6258,>256 µg/mL
CC(O)Cc1ccc(Cn2cc(CN3CCN([C@H](C)[C@](O)(Cn4cncn4)c4ccc(F)cc4F)CC3)c3cccc(F)c32)cc1,,MIC80,resazurin,ATCC 6258,64 µg/mL
C[C@H]1[C@H](O)[C@@H](C)/C=C/C=C/C=C/C=C/C=C/C=C/C=C/[C@H](O[C@@H]2O[C@H](C)[C@@H](O)[C@H](N)[C@@H]2O)C[C@@H]2O[C@](O)(C[C@@H](O)C[C@@H](O)CC[C@H](O)[C@@H](O)C[C@@H](O)CC(=O)O[C@H]1C)C[C@H](O)[C@H]2C(=O)O,,MIC,broth dilution,ATCC 6258,0.25 µg/mL
OC(CNCCCOc1ccc(Br)cc1)(Cn1cncn1)c1ccc(F)cc1F,,EC80,,,<0.125 µg/mL
Cc1coc2c1C(=O)[C@@H]1[C@@](C)(C2)[C@H](O)CC[C@@]1(C)O,,MIC,broth dilution,ATCC 6258,>256 µg/mL
CC(C)S(=O)(=O)N1CCN(c2cnn(-c3cc(F)cc(F)c3)c(=O)c2OC2CCC(F)C2)CC1,,MIC,broth dilution,C245,1 µg/mL
O/N=C/c1cccc[n+]1Cc1ccc(Br)s1.[Cl-],,EC50,broth dilution,,>20 µg/mL
O=C1O/C(=C\c2ccc(OCC(O)(Cn3cncn3)c3ccc(F)cc3F)cc2)C(c2ccc(F)cc2F)=C1c1ccc(Cl)cc1,,MIC50,broth dilution,ATCC 6258,4 µg/mL
OC(CCn1ccnc1)c1cccc(C(O)c2ccc(Cl)cc2)c1,,MIC,broth dilution,RTCC 1090,>64 µg/mL
C[C@@H](N1CCN(Cc2cn(Cc3ccc(F)cc3)c3ccccc23)CC1)[C@](O)(Cn1cncn1)c1ccc(F)cc1F,,MIC80,resazurin,ATCC 6258,1 µg/mL
CCCCCCCCCCCCCCCC(=O)NC(CCCCN)C(=O)NC(CCCCN)C(N)=O,,MIC,broth dilution,4473,4 µg/mL
N=c1oc2ccccc2c2csc(N)c12,,MIC,broth dilution,ATCC 6258,64 µg/mL
OC(Cn1cncn1)(Cn1cncn1)c1ccc(F)cc1F,,MIC,agar,,25–100 µg/mL
NC(=O)c1cc[n+](CCC[n+]2cccc(/C=N/O)c2)cc1.[Br-].[Br-],,EC50,broth dilution,,>20 µg/mL
CCOc1ccc2nc3cc(N=C4NC(=O)/C(=C\c5ccc([N+](=O)[O-])cc5)S4)ccc3c(N)c2c1,,MIC,broth dilution,,250 µg/mL
O=C(CCn1ccnc1)c1ccc2ccccc2c1,,MIC,broth dilution,RTCC 1001,>64 µg/mL
ON=Cc1ccc[n+](Cc2csc3ccccc23)c1.[Cl-],,EC50,broth dilution,,>20 µg/mL
C[C@@H](N1CCN(Cc2cn(Cc3ccc(F)cc3F)c3cc(N=[N+]=[N-])ccc23)CC1)[C@](O)(Cn1cncn1)c1ccc(F)cc1F,,MIC80,resazurin,ATCC 6258,1 µg/mL
CCOC(=O)C1C(=O)C=C(c2ccc(Br)cc2)CC1c1ccc(C2CC(c3ccc(Br)cc3)=CC(=O)C2C(=O)OCC)cc1,,MIC,,Clinical isolate,6.25 µg/mL
C/C(C=NCCN=C/C(C)=C\c1ccccc1)=C/c1ccccc1,,MIC90,agar diffusion,ATCC 6258,190 µM
Cc1cc(C)cc(NC(=O)CN(C)CC(O)(Cn2cncn2)c2ccc(F)cc2F)c1,,MIC80,,,16 µg/mL
COc1cc(NC(C)CCCNC(=O)CC(NC(=O)[C@H](N)CCCN)C(=O)O)c2nc(C(C)(C)C)ccc2c1,,MIC,broth dilution,,>20 µg/mL
CC1CC(=O)N(c2ccccc2)C1=O,,MIC,broth dilution / turbidity,CCC 117-2000,125 µg/mL
O=C(CCn1ccnc1)c1ccc(Br)cc1,,MIC,broth dilution,RTCC 1090,>64 µg/mL
COc1cc(NC(C)CCCNC(=O)CCC(NC(=O)[C@H](N)CCCCN)C(=O)O)c2nc(C(C)(C)C)ccc2c1,,EC50,broth dilution,,>20 µg/mL
CC(C)c1ccc(S(=O)(=O)Nc2ccc(CN(C)CC(O)(Cn3cncn3)c3ccc(F)cc3F)cc2)cc1,,MIC,resazurin,8,1.5 µg/mL

The first 7 rows once more:

SMILES | setting | read-out | method | strain or isolate | value
C[C@@H](N1CCN(Cc2cn(Cc3ccc(Cl)cc3Cl)c3c(F)cccc23)CC1)[C@](O)(Cn1cncn1)c1ccc(F)cc1F |  | MIC80 | resazurin | ATCC 6258 | 1 µg/mL
O=C(CCn1ccnc1)c1cccc(C(O)c2ccc(Br)cc2)c1 |  | MIC | broth dilution | RTCC 1090 | >64 µg/mL
C[C@@H](N1CCN(Cc2cn(Cc3ccc(Cl)cc3Cl)c3ccc(C#N)cc23)CC1)[C@](O)(Cn1cncn1)c1ccc(F)cc1F |  | MIC80 | resazurin | ATCC 6258 | 0.5 µg/mL
O=C(CCn1ccnc1)c1cccc(C(O)c2ccc(Cl)c(Cl)c2)c1 |  | MIC | broth dilution | RTCC 1090 | 64 µg/mL
O=C1OCC(c2cccs2)=C1c1ccc(OCC(O)(Cn2cncn2)c2ccc(F)cc2F)cc1 |  | MIC50 | broth dilution | ATCC 6258 | 8 µg/mL
C=CCc1ccc(O)c(OC)c1 |  | MIC90 | turbidity | 337 | 500 µg/mL
CC1(O)OC(=O)C(c2ccc(OCC(O)(Cn3cncn3)c3ccc(F)cc3F)cc2)=C1c1ccc(F)cc1F |  | MIC50 | broth dilution | ATCC 6258 | 16 µg/mL

ECn is the concentration giving n% inhibition of infection, replication or growth. An empty or dashed field is not shown. A number after MIC or MFC names an inhibition level or a share of isolates. Lines come from different laboratories, so protocols vary.